Results reported in patent publication US8535672B2, “Broad-spectrum in-vivo effective superantigen toxin antagonists based on the interaction between CD28 and the superantigen and uses thereof” (Yissum Research Development of the Hebrew University of …, priority 2003, dated 2013).

Key:
IL-10 in human PBMC = assay type: cell-based
soluble CD28 (sCD28) = target: T1, soluble CD28 (sCD28) (Homo sapiens, UniProt P10747); settings: at 37° C.; read-out: KD of sCD28 for sB7-2 reported by Collins et al.; cited from earlier work
T1 construct: comprise the extracellular 37-162, 19-152, 21-141, 24-167 and 20-239 amino acid, respectively, of the mature human ligands domain; purchased R&D Systems 342-CD; host or cells: mouse myeloma NS0 cells

B1: sB7-2: soluble recombinant B7-2 extracellular domain fused to His6-tagged Fc region of human IgG (R&D Systems 141-B2) (protein)
chain: LSGAAPLKIQAYFNETADLPCQFANSQNQSLSELVVFWQDQENLVLNEVYLGKEKFDSVHSKYMGRTSFDSDSWTLRLHNLQIKDKGLYQCIIHHKKPTGMIRIHQMNSELSVLANFSQPEIVPISNITENVYINLTCSSIHGYPEPKKMSVLLRTKNSTIEYDGVMQKSQDNVTELYDVSISLSVSFPDVTSNMTIFCILETDKTRLLSSPFSIELEDP
modifications: left off: a dimerising Fc or GST; small tags and cut ends
- induction of IL-10 by the substance alone (IL-10 in human PBMC): failed to induce IL-10 to levels comparable to those obtained in the presence of anti-CD3
- Kd (soluble CD28 (sCD28)): 20 µM
